Laboratory results: patent publication US20240392231A1, “BACTERIOLYSIS METHOD AND BACTERIA DETECTION METHOD” (ASAHI KASEI KABUSHIKI KAISHA, priority 2021, published 2024)

Experiment: Test line intensity of bacteria-free solution (false positives)
Conditions: lysostaphin final concentration exceeding 5.0 μg/ml

In the case of “lysostaphin: bacteriolysis enzyme, protein hydrolysis enzyme”, the “test line intensity, no bacteria (false positives)” value (DDAO 0.075 mass %, FIG. 4) is reported as at least 10 and the “test line intensity, no bacteria (false positives)” value (benzalkonium chloride 0.025 mass %, FIG. 5) is reported as at least 10.
